PubChem BioAssay AID1224833 | University of Georgia | 2016
Aim: 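Host factors restraining rotavirus as candidate antiviral genes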 (primary screen). System: monkey MA104 kidney cells. Reagents: siRNA pool against human genes, 50 nM. Time to read-out: 48 h knock-down before infection; read 24 h after infection. Challenge: infection with rotavirus strain RV3 two days after transfection; infectious dose for this stage not given. Measurement: 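z-score of rotavirus antigen signal per well, from a fluorescent immunoassay, relative to non-targeting control wells on the same plate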. Reading the numbers: z-score vs non-targeting control: higher = more rotavirus replication than with non-targeting control. Rule for the call: In these data the active calls have z-score vs non-targeting control at about -1 or lower, or at about 1 or higher. Calls: active = z-score beyond 1 either way; inactive = z-score within 1 of zero.
Here is one part, drawn at random, of about 12,000 reagents. About 5,600 of them (46%) count as active. 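Active calls cover z-scores past 1 in both directions, so they include lowered as well as raised rotavirus replication.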

no.	gene	z-score vs non-targeting control	activity call
1	BTG2 (GeneID 7832)	-1.13	active
2	MRPS15 (GeneID 64960)	-0.694	inactive
3	GNGT1 (GeneID 2792)	-1.79	active
4	MRGPRD (GeneID 116512)	-1.81	active
5	CHST8 (GeneID 64377)	-0.617	inactive
6	CTIF (GeneID 9811)	-0.303	inactive
7	MYOCD (GeneID 93649)	1.74	active
8	CEMP1 (GeneID 752014)	-0.676	inactive
9	CLMP (GeneID 79827)	-0.683	inactive
10	SMARCA4 (GeneID 6597)	2.97	active
11	FNDC4 (GeneID 64838)	0.232	inactive
12	ZNF829 (GeneID 374899)	1.4	active
13	P4HA1 (GeneID 5033)	1.74	active
14	MAFG (GeneID 4097)	-1.26	active
15	SLC44A2 (GeneID 57153)	2.86	active
16	FGF14 (GeneID 2259)	-2.73	active
17	CNTNAP5 (GeneID 129684)	0.0363	inactive
18	HTRA4 (GeneID 203100)	1.73	active
19	PPRC1 (GeneID 23082)	-1.63	active
20	RAPGEF1 (GeneID 2889)	0.0879	inactive
21	OR5AS1 (GeneID 219447)	-0.567	inactive
22	COMMD4 (GeneID 54939)	0.319	inactive
23	VILL (GeneID 50853)	-0.479	inactive
24	AFMID (GeneID 125061)	0.852	inactive

Continued (6 carried over from the part before).
no.	gene	z-score vs non-targeting control	activity call
19	PPRC1 (GeneID 23082)	-1.63	active
20	RAPGEF1 (GeneID 2889)	0.0879	inactive
21	OR5AS1 (GeneID 219447)	-0.567	inactive
22	COMMD4 (GeneID 54939)	0.319	inactive
23	VILL (GeneID 50853)	-0.479	inactive
24	AFMID (GeneID 125061)	0.852	inactive
25	ZDHHC12 (GeneID 84885)	-0.699	inactive
26	TECPR2 (GeneID 9895)	-1.08	active
27	ADORA2A (GeneID 135)	-0.576	inactive
28	CNNM3 (GeneID 26505)	-0.871	inactive
29	LETMD1 (GeneID 25875)	-2.22	active
30	HBG1 (GeneID 3047)	-0.591	inactive
31	RASA1 (GeneID 5921)	-1.07	active
32	NACA (GeneID 4666)	0.104	inactive
33	SYT4 (GeneID 6860)	-1.08	active
34	EPDR1 (GeneID 54749)	0.046	inactive
35	TP53I11 (GeneID 9537)	-1.75	active
36	C5orf24 (GeneID 134553)	-0.846	inactive
37	C1orf141 (GeneID 400757)	1.79	active
38	MAGEA8 (GeneID 4107)	-0.737	inactive
39	FITM2 (GeneID 128486)	1.86	active
40	CSF3 (GeneID 1440)	0.72	inactive
41	LY6G6F (GeneID 259215)	-0.929	inactive
42	SPACA1 (GeneID 81833)	0.161	inactive
43	SLCO3A1 (GeneID 28232)	-3.26	active
44	CRTAP (GeneID 10491)	-0.284	inactive
45	TAB3 (GeneID 257397)	-0.962	inactive
